US4130645A (priority 1978, dated 1978)

Columns and labels:
Type in all cases: in vivo
[1] = tested on: Podosphaera leucotricha (E&E) Salm.; experiment: Foliar fungicidal activity, control of apple powdery mildew on apple seedlings; settings: for activity against apple powdery mildew: in words
[2] = tested on: Erysiphe graminis f. sp. hordei; experiment: Foliar fungicidal activity, control of barley powdery mildew on barley; settings: 500 ppm
[3] = tested on: Pyricularia oryzae Carvara; experiment: Foliar fungicidal activity, control of rice blast on rice
[4] = tested on: Venturia inaequalis (Cke.) Wint.; experiment: Foliar fungicidal activity, control of apple scab on apple seedlings

## O=[N+]([O-])Nc1c(Cl)cc([N+](=O)[O-])cc1Cl
[1]; 500 ppm
  Apple Powdery Mildew Percent Disease Control: 84%
[1]
  activity against apple powdery mildew: active
[2]
  Barley Powdery Mildew Percent Disease Control: 100%

## CCC(C)N(c1c([N+](=O)[O-])cc(C)c(C)c1[N+](=O)[O-])[N+](=O)[O-] (stereo not drawn)
[2]
  Barley Powdery Mildew Percent Disease Control: 89%

## O=[N+]([O-])Nc1c(Cl)c(Cl)c([N+](=O)[O-])c(Cl)c1Cl
[3]; 500 ppm
  Rice Blast Percent Disease Control: 86%
[3]; in words
  activity against the rice blast pathogen: considerable activity
[4]; 500 ppm
  Apple Scab Percent Disease Control: 81%
[4]; in words
  activity against apple scab: active

## O=[N+]([O-])Nc1c(Br)cc([N+](=O)[O-])cc1Br
[1]
  activity against apple powdery mildew: active
